A mixed list of measured activities; the numbers were collected in NIAID ChemDB.

Common to all: toxicity to cultured cells; cell line: Huh7; endpoint: CC50

An empty or dashed field is not shown. Lines come from different laboratories, so protocols vary. a–b is a range or a potency band. CCn: concentration that lowers growth or viability of the cells by n%.

| structure | read by | result |
|---|---|---|
| N#Cc1c(Nc2ccnc(Cl)c2)s[nH]c1=O | - | >50 µM |
| Nc1nc(N2CCOCC2)c2nc(-c3ccc(Cl)s3)cnc2n1 | - | <10 µM |
| N#Cc1c(Nc2ccc(Cl)cc2)s[nH]c1=O | - | >50 µM |
| Cc1ccc(Sc2ccccc2)c(Nc2ncnc3nc(C4CCC4)ccc23)c1 | MTT | 3.6 µM |
| COc1ccccc1-c1cnc2nc(N)nc(N3CCOCC3)c2n1 | - | >20 µM |
| CCOc1nc(N)nc2ccc(-c3ccc(NC(=O)C4(O)CC4)cc3)nc12 | - | >20 µM |
| COCCCNc1s[nH]c(=O)c1C#N | - | >50 µM |
| Cc1ccc(Sc2ccc(O)cc2)c(Nc2ncnc3nc(N4CCCCC4)ncc23)c1 | MTT | >50 µM |
| Nc1nc(O[C@H]2CCOC2)c2nc(-c3ccc(C(=O)NCCCN4CCCC4)cc3)ccc2n1 | - | >20 µM |
| Nc1nc(N2CCOCC2)c2nc(-c3c(Cl)cccc3Cl)cnc2n1 | - | 10–20 µM |
| N#Cc1c(Nc2ccc(C(F)(F)F)cc2)s[nH]c1=O | - | >50 µM |
| COC(=O)Nc1ccc(-c2ccc3nc(N)nc(N4CCS(=O)(=O)CC4)c3n2)cc1 | - | >20 µM |
| COc1cccc(Nc2s[nH]c(=O)c2C#N)c1 | - | >50 µM |
| CC(C)C(=O)Nc1ccc(-c2ccc3nc(N)nc(N4CCS(=O)(=O)CC4)c3n2)cc1 | - | >20 µM |
| COc1ccc(N2CCN(c3nc(N)nc4ncc(-c5ccc(OC)c(OC)c5)nc34)CC2)cc1 | ATP | >20 µM |
| CCOc1nc(N)nc2ncc(-c3ccc(N)cc3)nc12 | - | >20 µM |
| CCC(=O)Nc1ccc(-c2ccc3nc(N)nc(NCCOC)c3n2)cc1 | - | >20 µM |
| Cc1ccc(Sc2ccc(O)cc2)c(Nc2ncnc3nc(C(C)(C)C)ccc23)c1 | MTT | 7.1 µM |
| CCC(=O)Nc1ccc(-c2ccc3nc(N)nc(OCCOC)c3n2)cc1 | - | >20 µM |
| COc1ccc(-c2cnc3nc(N)nc(N4CCN(Cc5ccccn5)CC4)c3n2)cc1OC | ATP | 10–20 µM |
| CC(=O)Nc1ccc(Sc2ccc(C)cc2Nc2ncnc3nc(C)ccc23)cc1 | MTT | >50 µM |
| CC(C)C(=O)Nc1ccc(-c2ccc3nc(N)nc(NCCS(C)(=O)=O)c3n2)cc1 | - | >20 µM |
| COc1ccc(-c2cnc3nc(N)nc(N4CCN(C(=O)Nc5cccc(C)c5)CC4)c3n2)cc1OC | ATP | <10 µM |
| CC(C)(O)CCOc1nc(N)nc2ncc(-c3ccc(F)cc3)nc12 | - | >20 µM |
| COc1ccc(-c2cnc3nc(N)nc(N4CCN(C(=O)/C=C/c5ccccc5)CC4)c3n2)cc1OC | ATP | <10 µM |
| COCCNc1nc(N)nc2ccc(-c3ccc(C(=O)NC4CC4)cc3)nc12 | - | >20 µM |
| COC(=O)c1ccccc1Nc1s[nH]c(=O)c1C#N | - | >50 µM |
| CC(C)C(=O)Nc1ccc(-c2ccc3nc(N)nc(O[C@H]4CCOC4)c3n2)cc1 | - | >20 µM |
| CC(Nc1s[nH]c(=O)c1C#N)c1ccccc1 | - | >50 µM |
| COc1ccc(-c2cnc3nc(N)nc(N4CCN(CC(=O)N(C)c5ccccc5)CC4)c3n2)cc1OC | ATP | <10 µM |

The last 3 rows once more:

structure,read by,result
CC(C)C(=O)Nc1ccc(-c2ccc3nc(N)nc(O[C@H]4CCOC4)c3n2)cc1,-,>20 µM
CC(Nc1s[nH]c(=O)c1C#N)c1ccccc1,-,>50 µM
COc1ccc(-c2cnc3nc(N)nc(N4CCN(CC(=O)N(C)c5ccccc5)CC4)c3n2)cc1OC,ATP,<10 µM